PubChem BioAssay AID504761 – Drosophila RNAi Screening Center – 2011
Screen: 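Fly genes whose silencing reduces dengue virus type 2 infection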 (primary screen). Cell system: D.Mel-2 cells from Drosophila. Reagent: long dsRNA against Drosophila genes. Conditions: infection with dengue virus type 2; dose and infection time not stated. Measured: 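Per well on two replicate plates, imaging gave the percent of cells positive for viral envelope protein, ranked by infection, and a nuclear count of cells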. Direction: infection score: higher = more virus-infected cells. Active means: 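Very low infection ranking in both replicate wells (chance probability at most 0.065), then a retest showing infection dropped 1.5-fold or more at p below 0.05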. Calls: active = confirmed: knock-down lowers infection; inactive = not picked or not confirmed.
The screen tested about 22,000 reagents; below is a random part of those with a known target gene and a result. In the full data, 116 (0.52%) were called active. 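Calls depend on retest data that are not deposited; infection was ranked per plate without normalising between plates; the unit of the infection score is not given.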 Reagents against one gene are numbered here. Not all columns of the deposit are shown. The record does not give: the amount of reagent, the time to read-out.

{"Target gene": "Rpn12 (GeneID 39845)", "reagent no.": 1, "infection score, replicate 1": 1.78, "Call": "inactive"}
{"Target gene": "Rpn12 (GeneID 39845)", "reagent no.": 2, "infection score, replicate 1": 2.42, "Call": "inactive"}
{"Target gene": "Cec2 (GeneID 3772199)", "reagent no.": 1, "infection score, replicate 1": 22.1, "Call": "inactive"}
{"Target gene": "Cec2 (GeneID 3772199)", "reagent no.": 2, "infection score, replicate 1": 5.95, "Call": "inactive"}
{"Target gene": "CG5357 (retired record) (GeneID 37712)", "reagent no.": 1, "infection score, replicate 1": 6.29, "Call": "inactive"}
{"Target gene": "CG5357 (retired record) (GeneID 37712)", "reagent no.": 2, "infection score, replicate 1": 2.08, "Call": "inactive"}
{"Target gene": "CG11550 (GeneID 43731)", "reagent no.": 1, "infection score, replicate 1": 4.33, "Call": "inactive"}
{"Target gene": "CG4927 (GeneID 36852)", "reagent no.": 1, "infection score, replicate 1": 5.75, "Call": "inactive"}
{"Target gene": "CG4927 (GeneID 36852)", "reagent no.": 2, "infection score, replicate 1": 14.5, "Call": "inactive"}
{"Target gene": "DIP1 (GeneID 43981)", "reagent no.": 1, "infection score, replicate 1": 0.43, "Call": "inactive"}
{"Target gene": "DIP1 (GeneID 43981)", "reagent no.": 2, "infection score, replicate 1": 15.4, "Call": "inactive"}
{"Target gene": "Obp44a (GeneID 35789)", "reagent no.": 1, "infection score, replicate 1": 11.8, "Call": "inactive"}
{"Target gene": "Obp44a (GeneID 35789)", "reagent no.": 2, "infection score, replicate 1": 19.6, "Call": "inactive"}
